Compound potency records, mixed from different reports. Data source: NIAID ChemDB in PubChem.

Shared fields: growth or infection tests; species: Adenovirus; endpoint: EC50

ECn: concentration that inhibits the pathogen or its effect by n%.

structure,strain,cell line,method,value
CC(C)CS[C@@H]1C[C@H](n2cnc3c(N)ncnc32)[C@@H](O)[C@H]1O,TYPE 1,A549,cytopathic effect,>100 µg/mL
COc1cc(/C=N/N=C(/N)NO)cc(OC)c1OC.Cc1ccc(S(=O)(=O)O)cc1,ATCC VR18 (TYPE 17),VERO,plaque count,>50 µM
CN[C@H]1C[C@@H](n2cnc3c(N)ncnc32)[C@H](O)[C@@H]1O,TYPE 1,HFF,-,>100 µg/mL
Nc1ccn([C@H]2CC[C@@H](CO)O2)c(=O)n1,TYPE 2,HEP-2,-,3.95 µg/mL
CSc1nsc(-c2ccncc2)c1C#N,TYPE 2,HEP-2,plaque count,>2.5 µM
O=C(O)CC(NC(=O)CNC(=O)c1cccc(NC2=NCCCCC2)c1)c1cccnc1,TYPE 2,HeLa,-,>100 µM
Cc1ccc(S(=O)(=O)O)cc1.N/C(=N\N=C\c1cc(Br)cc(Br)c1O)NO,WT 300 (TYPE 5),A549,plaque count,5 µM
C#C[C@@H](CC(=O)O)NC(=O)CNC(=O)c1cccc(N=C(N)N)c1,TYPE 2,HeLa,-,>100 µM
CSc1nsc(-c2ccc(C(F)(F)F)cc2)c1C#N,TYPE 2,HEP-2,plaque count,>14 µM
COc1ccc(OC)c(/C=N/N=C(/N)NO)c1.Cc1ccc(S(=O)(=O)O)cc1,ATCC VR18 (TYPE 17),VERO,plaque count,>50 µM
S=c1cc(-c2ccccc2)s[nH]1,TYPE 2,HEP-2,plaque count,>90 µM
NC(N)=Nc1cccc(C(=O)NCC(=O)NC(CC(=O)O)c2cccs2)c1,TYPE 2,HUMAN 293/beta5,-,>100 µM
N#Cc1csnc1-c1ccccc1,TYPE 2,HEP-2,plaque count,>100 µM
NCC(=O)N[C@@H](CCCN=C(N)N)C(=O)NCC(=O)N[C@@H](CCC(=O)O)C(=O)N[C@@H](CO)C(=O)N1CCC[C@H]1C(=O)O,TYPE 2,HUMAN 293/beta5,-,>2000 µM
CSc1nsc(-c2ccc[n+](C)c2)c1C#N,TYPE 2,HEP-2,plaque count,>1250 µM
O=C(O)CC(NC(=O)CNC(=O)c1cc(NC2=NCCN2)cc(C(F)(F)F)c1)c1cc(Cl)cc(Cl)c1O,TYPE 2,HUMAN 293/beta5,-,<100 µM
COc1ccc(/C=N/N=C(/N)NO)c(OC)c1OC.Cc1ccc(S(=O)(=O)O)cc1,ATCC VR18 (TYPE 17),VERO,plaque count,>50 µM
N#Cc1c(-c2ccccc2)nsc1Cl,TYPE 2,HEP-2,plaque count,>20 µM

Lines come from different laboratories, so protocols vary. An empty or dashed field is not shown.